Compound potency records, mixed from different reports. Data source: NIAID ChemDB in PubChem.

Shared fields: whole-cell or culture tests; agent: Mycobacterium avium complex

An empty or dashed field is not shown. Neighbouring rows are from separate reports. ECn: concentration that inhibits the pathogen or its effect by n%. A number after MIC or MFC names an inhibition level or a share of isolates. Inhibition is in % at the dose shown (toxicity tests: loss of growth or viability).

SMILES,strain,cells,read by,measure,dose,value
CC[C@H]1OC(=O)[C@H](C)[C@@H](O[C@H]2C[C@@](C)(OC)[C@@H](OC(C)=O)[C@H](C)O2)[C@H](C)[C@@H](O[C@@H]2O[C@H](C)C[C@H](N(C)C)[C@H]2O)C(C)(O)C[C@@H](C)/C(=N\OCCSc2ccccc2)[C@H](C)[C@@H](O)[C@]1(C)O,20096 (clarithromycin-resistant),-,-,MIC,-,6.25 µg/mL
CC[C@H]1OC(=O)[C@H](C)[C@@H](O[C@H]2C[C@@](C)(OC)[C@@H](O)[C@H](C)O2)[C@H](C)[C@@H](O[C@@H]2O[C@H](C)C[C@H](N(C)C)[C@H]2O)[C@](C)(OC)C[C@@H](C)C(=O)[C@H](C)[C@@H](O)[C@]1(C)O,25 isolates,-,-,MIC90,-,>8 µg/mL
C[C@@H]1CN(c2c(F)c(N)c3c(=O)c(C(=O)O)cn(C4CC4)c3c2F)C[C@H](C)N1,ATCC 15769,-,-,MBC,-,0.5 µg/mL
NC(=O)c1cnccn1,33 strains (pyrazinamidase-positive),-,-,inhibition,100 µg/mL,0%
CC[C@H]1OC(=O)[C@H](C)[C@@H](OC2C[C@@](C)(OC)[C@@H](O)[C@H](C)O2)[C@H](C)[C@@H](O[C@@H]2O[C@H](C)C[C@H](N(C)C)[C@H]2O)C(C)(O)C[C@@H](C)/C(=N\OCCCC2CCCCC2)[C@H](C)[C@@H](O)[C@]1(C)O,20039 (clarithromycin-susceptible),-,-,MIC,-,3.13 µg/mL
CCc1cc(C(N)=S)ccn1,155 strains,-,agar,EC50,-,>5 µg/mL
CCc1nc(N)nc(N)c1-c1ccc(Cl)cc1,DW1,-,-,MIC,-,16 µg/mL
CN[C@@H]1[C@H](O[C@H]2[C@H](O[C@H]3[C@H](O)[C@@H](O)[C@H](N=C(N)N)[C@@H](O)[C@@H]3N=C(N)N)O[C@@H](C)[C@]2(O)C=O)O[C@@H](CO)[C@H](O)[C@H]1O,N-259 (HIV-),-,-,MIC,-,32 µg/mL
CC[C@H]1OC(=O)[C@H](C)[C@@H](O[C@H]2C[C@@](C)(OC)[C@@H](O)[C@H](C)O2)[C@H](C)[C@@H](O[C@@H]2O[C@H](C)C[C@H](N(C)C)[C@H]2O)[C@](C)(O)C[C@@H](C)CN(C)[C@H](C)[C@@H](O)[C@]1(C)O,25 isolates,-,-,MIC50,-,>8 µg/mL
CC1(C)N=C(N)N=C(N)N1OCCCOc1cc(Cl)c(Cl)cc1Cl,NKJ002A,-,-,MIC,-,4 µg/mL
CO[C@H]1/C=C/O[C@@]2(C)Oc3c(C)c(O)c4c(O)c(c5c(c4c3C2=O)NC2(CCN(CC(C)C)CC2)N=5)=NC(=O)/C(C)=C\C=C\[C@H](C)[C@H](O)[C@@H](C)[C@@H](O)[C@@H](C)[C@H](OC(C)=O)[C@@H]1C,242-5,-,-,MBC,-,8 µg/mL
CC1CN(c2cc3c(cc2F)c(=O)c(C(=O)O)cn3-c2ccc(F)cc2F)CCN1,25 isolates,-,-,MIC90,-,>8 µg/mL
CCCCCCCCCCO/N=C1\[C@H](C)CC(C)(O)[C@H](O[C@@H]2O[C@H](C)C[C@H](N(C)C)[C@H]2O)[C@@H](C)[C@H](OC2C[C@@](C)(OC)[C@@H](O)[C@H](C)O2)[C@@H](C)C(=O)O[C@H](CC)[C@@](C)(O)[C@H](O)[C@H]1C,20039 (clarithromycin-susceptible),-,-,MIC,-,12.5 µg/mL
N[C@@H]1CN(c2c(F)cc3c(=O)c(C(=O)O)cn([C@@H]4C[C@@H]4F)c3c2Cl)CC12CC2,100,Macrophages,-,EC50,-,<10 µg/mL
CC[C@H]1OC(=O)[C@H](C)[C@@H](O[C@H]2C[C@@](C)(OC)[C@@H](O)[C@H](C)O2)[C@H](C)[C@@H](O[C@@H]2O[C@H](C)C[C@H](N(C)C)[C@H]2O)[C@](C)(O)C[C@@H](C)C(=O)[C@H](C)[C@@H](O)[C@]1(C)O,25 isolates,-,-,MBC90,-,>8 µg/mL
CC(C)N=C(N)/N=C(\N)NOCCCOc1cc(Cl)c(Cl)cc1Cl,2242,-,-,MIC,-,32 µg/mL
CC[C@H]1OC(=O)[C@H](C)[C@@H](OC(=O)c2ccccc2)[C@H](C)[C@@H](O[C@@H]2O[C@H](C)C[C@H](N(C)C)[C@H]2O)C(C)(O)C[C@@H](C)/C(=N\OCCCOc2ccccc2)[C@H](C)[C@@H](O)[C@]1(C)O,20092 (clarithromycin-resistant),-,-,MIC,-,6.25 µg/mL
CC(C)N=c1cc2n(-c3ccc(Cl)cc3)c3ccccc3nc-2cc1Nc1ccc(Cl)cc1,715,-,-,MBC,-,64 µg/mL
CC[C@H]1OC(=O)[C@H](C)[C@@H](O[C@H]2C[C@@](C)(OC)[C@@H](O)[C@H](C)O2)[C@H](C)[C@@H](O[C@@H]2O[C@H](C)C[C@H](N(C)C)[C@H]2O)[C@](C)(O)C[C@@H](C)/C(=N\OC)[C@H](C)[C@@H](O)[C@]1(C)O,20096 (clarithromycin-resistant),-,-,MIC,-,>50 µg/mL
CO[C@H]1/C=C/O[C@@]2(C)Oc3c(C)c(O)c4c(O)c(c5c(c4c3C2=O)NC2(CCN(CC(C)C)CC2)N=5)=NC(=O)/C(C)=C\C=C\[C@H](C)[C@H](O)[C@@H](C)[C@@H](O)[C@@H](C)[C@H](OC(C)=O)[C@@H]1C,N-269 (HIV-),-,-,MIC,-,0.125 µg/mL
CC[C@H]1OC(=O)[C@H](C)[C@@H](OC2C[C@@](C)(OC)[C@@H](O)[C@H](C)O2)[C@H](C)[C@@H](O[C@@H]2O[C@H](C)C[C@H](N(C)C)[C@H]2O)C(C)(O)C[C@@H](C)/C(=N\OCC2CCCCC2)[C@H](C)[C@@H](O)[C@]1(C)O,20096 (clarithromycin-resistant),-,-,MIC,-,>50 µg/mL
C[C@H]1COc2c(N3CCN(C)CC3)c(F)cc3c(=O)c(C(=O)O)cn1c23,25 isolates,-,-,MBC90,-,>8 µg/mL

A second listing of 3 rows from above:

SMILES	strain	cells	read by	measure	dose	value
N[C@@H]1CN(c2c(F)cc3c(=O)c(C(=O)O)cn([C@@H]4C[C@@H]4F)c3c2Cl)CC12CC2	100	Macrophages	-	EC50	-	<10 µg/mL
CC1CN(c2cc3c(cc2F)c(=O)c(C(=O)O)cn3-c2ccc(F)cc2F)CCN1	25 isolates	-	-	MIC90	-	>8 µg/mL
CC[C@H]1OC(=O)[C@H](C)[C@@H](O[C@H]2C[C@@](C)(OC)[C@@H](O)[C@H](C)O2)[C@H](C)[C@@H](O[C@@H]2O[C@H](C)C[C@H](N(C)C)[C@H]2O)[C@](C)(O)C[C@@H](C)C(=O)[C@H](C)[C@@H](O)[C@]1(C)O	25 isolates	-	-	MBC90	-	>8 µg/mL